Pooled drug test results. Numbers come from NIAID ChemDB, via PubChem.

Common to all: whole-cell or culture tests; agent: HIV-1; read by: syncytia; measure: EC50

Conditions beyond the fields shown may differ between rows.

compound | cell line | strain or isolate | mutations | result
O=c1[nH]cnc2c1ncn2[C@H]1CC[C@@H](CO)O1 | CEM | IIIB TIBO R82150-resistant (RT L100I) | RT-L100I | 15 µM
Nc1ncnc2c1ncn2CCOCP(=O)(O)O | CEM | IIIB-BHAP)(0.1)(RT-L100I | RT-L100I | 8 µM
CCN1C(=O)N(Cc2ccccc2Cl)S(=O)(=O)c2cscc21 | MT-4 | RF | - | 10.9 µM
CCn1c(=O)c(C)cn([C@@H]2O[C@H](CO[Si](C)(C)C(C)(C)C)C3(OS(=O)(=O)C=C3N)[C@H]2O[Si](C)(C)C(C)(C)C)c1=O | CEM | IIIB | - | 0.03 µM
Cc1cn([C@@H]2O[C@H](CO[Si](C)(C)C(C)(C)C)C3(OS(=O)(=O)C=C3N)[C@H]2O[Si](C)(C)C(C)(C)C)c(=O)n(C)c1=O | CEM | IIIB HEPT-resistant (RT Y188H) | RT-Y188H | ≥50 µg/mL
CCN1C(=O)N(Cc2ccccc2)S(=O)(=O)c2cscc21 | CEM | IIIB | - | 2.8 µM
CC(C)=CCN1Cc2cc(Cl)cc3[nH]c(=S)n(c23)C[C@@H]1C | CEM | IIIB | - | 0.02 µg/mL
CC(C)=CCN1Cc2cc(Cl)cc3[nH]c(=S)n(c23)C[C@@H]1C | CEM | IIIB nevirapine-resistant (RT Y181C) | RT-Y181C | 2 µM
CCOCn1c(Sc2ccccc2)c(CC)c(=O)[nH]c1=O | CEM | IIIB | - | 0.005 µg/mL
Nc1ccn([C@H]2CC[C@@H](CO)O2)c(=O)n1 | CEM | IIIB | - | 0.05 µM
CCOCn1c(Cc2cc(C)cc(C)c2)c(CC)c(=O)[nH]c1=O | CEM | IIIB NEV(RT-V106A) | RT-V106A | 0.03 µg/mL
CCN1C(=O)N(Cc2cccc(Cl)c2)S(=O)(=O)c2cscc21 | CEM | - | RT-L100I | 3.6 µM
CCNc1cccnc1N1CCN(C(=O)c2cc3cc(OC)ccc3[nH]2)CC1 | CEM | IIIB-TIBO(0.1) | - | 0.12 µg/mL
N#CCN1C(=O)N(Cc2cccc(F)c2)S(=O)(=O)c2cscc21 | CEM | - | RT-L100I | 2.9 µM
O=c1[nH]cnc2c1ncn2[C@H]1CC[C@@H](CO)O1 | CEM | IIIB | - | 5 µM
Cc1ccnc2c1NC(=O)c1cccnc1N2C1CC1 | CEM | IIIB NEV(RT-V106A) | RT-V106A | 2.3 µg/mL
Nc1ccn([C@H]2CC[C@@H](CO)O2)c(=O)n1 | CEM | IIIB-Pyridinone(0.1)(RT-V179N | RT-V179N | 0.02 µM
Nc1ncnc2c1ncn2CC(CF)OCP(=O)(O)O | CEM | IIIB | - | 3 µM

Repeating the final 3 entries:

compound | cell line | strain or isolate | mutations | result
Cc1ccnc2c1NC(=O)c1cccnc1N2C1CC1 | CEM | IIIB NEV(RT-V106A) | RT-V106A | 2.3 µg/mL
Nc1ccn([C@H]2CC[C@@H](CO)O2)c(=O)n1 | CEM | IIIB-Pyridinone(0.1)(RT-V179N | RT-V179N | 0.02 µM
Nc1ncnc2c1ncn2CC(CF)OCP(=O)(O)O | CEM | IIIB | - | 3 µM

Blank or dashed fields: not listed here. ECn: concentration that inhibits the pathogen or its effect by n%.